PubChem BioAssay AID504761 – Drosophila RNAi Screening Center, 2011

Screen: 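Insect host genes that dengue virus relies on to spread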 (primary screen)
System: D.Mel-2 cells from Drosophila
Knock-down reagent: long dsRNA against Drosophila genes
Challenge: infection with dengue virus type 2; dose and infection time not stated
Read-out: 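Per well on two replicate plates, imaging gave the percent of cells positive for viral envelope protein, ranked by infection, and a nuclear count of cells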
Scale: infection score: higher = more virus-infected cells; cell count: higher = more cells in the well
Hit rule: 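Low infection ranks in the two replicates (chance level up to 0.065) followed by a retest with a 1.5-fold or larger significant decrease, p below 0.05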
Meaning of the calls: active = confirmed: knock-down lowers infection; inactive = not picked or not confirmed
The screen tested about 22,000 reagents; shown is an unselected part of those that have a named target and a result. In the full data, 116 (0.52%) got an active call. 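Calls depend on retest data that are not deposited; infection was ranked per plate without normalising between plates; the unit of the infection score is not given.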 Raw values vary from plate to plate and are shown uncorrected. A number with no mark means an inactive call. Names joined by + are all predicted targets of the reagent. The record does not give: the amount of reagent, the time to read-out.

"infection score, replicate 1","infection score, replicate 2","cell count, replicate 1","cell count, replicate 2",gene,amplicon
3.68,0.67,1006,1051,His3:CG33818 + His3:CG33857 + His3:CG33806 + 20 more,DRSC21267
7.99,1.63,5930,6864,CG6271,DRSC16006
0.58,7.78,6041,6351,CG6271,DRSC25865
7.8,14.7,6849,6914,CG33144,DRSC07024
2.74,3.3,6706,6510,CG33144,DRSC25033
3.09,2.69,5624,5913,l(3)05822 (lethal (3) 05822),DRSC16202
0.62,1.48,6130,5759,l(3)05822 (lethal (3) 05822),DRSC24720
11.1,7.81,4043,3673,Rpt4 (Regulatory particle triple-A ATPase 4),DRSC18713
2.3,7.03,6002,6440,Nepl14 (Neprilysin-like 14),DRSC15631
9.58,20.3,5667,5797,Mulk (Multi-substrate lipid kinase),DRSC02658
0.68,1.12,6038,6520,shd (shade),DRSC11129
14.3,2.65,6345,6650,Regnase-1 (Regnase 1),DRSC14278
4.08,0.71,6224,7053,CG7991,DRSC08609
,3.61,357,859,CG7991,DRSC29595
11.7,21,6722,6581,EMC2B + EMC2A,DRSC15241
3.01,21.9,7073,5716,CG13324,DRSC06361
1.53,2.83,6062,5652,CG14963,DRSC08422
4.93,1.54,6497,6422,CG6034,DRSC10572
36.4,0.22,5422,461,CG6034,DRSC27294
11.1,1.61,5507,6847,lectin-29Ca,DRSC02635
4.23,7.2,6339,6860,CG6028,DRSC15951
7.88,6.64,6000,6207,CG2656,DRSC12584
1.36,2.75,6248,6371,Or67b (Odorant receptor 67b),DRSC11241
2.94,,6459,452,Gs1 (Glutamine synthetase 1),DRSC00753
12,,2508,396,Gs1 (Glutamine synthetase 1),DRSC28916
17,13.7,4822,6999,elm (ethanol sensitive with low memory),DRSC12309
4.31,1.05,6169,6091,Grl36b (Gustatory receptor-like 36b),DRSC01627
0.75,10.6,6816,6270,CG31792,DRSC02604
2.26,4.85,6320,6329,Pif1A + Pif1B,DRSC14142
8.48,5.44,7149,6833,Pif1A + Pif1B,DRSC14380
0.41,6.68,6335,6211,Pif1A + Pif1B,DRSC14381
15.1,9.78,6258,6167,rig (rigor mortis),DRSC06053
3.24,3.12,6264,5925,rig (rigor mortis),DRSC06400
5.95,4.09,6422,6872,laza (lazaro),DRSC11661
1.65,3.51,6672,6516,laza (lazaro),DRSC23330
1.38,,506,244,laza (lazaro),DRSC29129
6.28,3.16,6589,6781,Pglym87 (Phosphoglyceromutase 87),DRSC15252
3.21,3.93,6363,6412,Pglym87 (Phosphoglyceromutase 87),DRSC26066
7.54,9.57,5766,3384,SA1 (Stromalin 1),DRSC03424
13.1,11.3,4833,4128,SA1 (Stromalin 1),DRSC28222
,2.7,353,592,CG8314,DRSC07144
7.96,18.1,5202,5427,CG4661,DRSC19910
9.38,2.13,5629,894,CG5421,DRSC02858
11.3,3.24,6271,6199,CG5421,DRSC24636
1.94,2.28,5862,6626,kni (knirps),DRSC23093
35.4,24.4,5551,6063,kni (knirps),DRSC29974
1.47,6.83,6190,5582,Kebab (Kinetochore and EB1 associated basic protein),DRSC00827
17.7,7.34,4916,1335,Kebab (Kinetochore and EB1 associated basic protein),DRSC29332
1.7,2.63,5993,6969,CG15545,DRSC15083
23.2,,5563,429,CG15545,DRSC29523
3.24,4.05,5839,5727,Sod1 (Superoxide dismutase 1),DRSC11286
4.12,9.11,5991,6005,Yeti,DRSC21138
6.62,0.34,6347,6260,Aptx (aprataxin),DRSC15768
15.2,,5152,398,Aptx (aprataxin),DRSC28121
1.19,1.78,5638,5604,CG33136,DRSC05744
15.9,,5095,376,CG33136,DRSC29014
3.17,3.87,5778,5292,CG7564,DRSC10880
1.63,4.57,553,1577,CG7564,DRSC28225
9.15,23.2,5857,5637,G6P (Glucose-6-Phosphatase),DRSC27121
21.5,23.6,4795,4281,Hira,DRSC18672
13.6,20.1,4053,5531,RpL22-like (Ribosomal protein L22-like),DRSC04582
0.81,16.7,6453,6353,Smox (Smad on X),DRSC23488
8.18,4.61,6173,6554,Su(var)2-10 (Suppressor of variegation 2-10),DRSC07721
8.08,0.92,5361,649,Su(var)2-10 (Suppressor of variegation 2-10),DRSC28335
2.36,0.75,2123,1997,betaCOP (Coat Protein (coatomer) beta),DRSC20312
1.82,1.46,713,893,betaCOP (Coat Protein (coatomer) beta),DRSC27169
3.11,2.66,5658,5266,CG30325,DRSC05685
5.13,4.65,6415,7249,CG18810,DRSC02701
5.67,4.95,6088,6754,Gapdh2 (Glyceraldehyde 3 phosphate dehydrogenase 2),DRSC20246
6.5,1.39,6095,5963,Gapdh2 (Glyceraldehyde 3 phosphate dehydrogenase 2),DRSC24596
2.13,1.97,4825,5116,Vps16A (Vacuolar protein sorting 16A),DRSC16422
1.81,5.25,6589,6651,CG8300,DRSC23231
28.2,26.6,6210,4747,CG8300,DRSC29869
5.95,20.4,6467,6351,NKCC (sodium potassium chloride cotransporter),DRSC12140
2.28,30.9,6940,5928,NKCC (sodium potassium chloride cotransporter),DRSC12311
